Reference: ChEMBL document CHEMBL1687761

What was measured:
Escherichia coli [1] = assay: Ratio of Kcat to Km for Escherichia coli XL1-Blue VIM-2 A64W mutant beta-lactamase by spectrophotometer
In short: (§1)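 Mutant enzyme expressed in E. coli BL21(DE3) in autoinducing ZYP-5052 medium. Purified by anion exchange at pH 7.2, then high-resolution anion exchange at pH 9.2, plus gel filtration in 50 mM HEPES-50 μM ZnSO4 pH 7.5 where needed. Identity confirmed by tryptic peptide mass fingerprint. Steady-state kinetics on β-lactam substrates were run under the conditions used for wild-type VIM-2.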

Escherichia coli [2] = assay: Activity of Escherichia coli XL1-Blue VIM-2 A64W mutant beta-lactamase by spectrophotometer; in short: as §1

## CO/N=C(\C(=O)N[C@@H]1C(=O)N2C(C(=O)O)=C(COC(N)=O)CS[C@H]12)c1ccco1
Escherichia coli [1]
  kcat/Km: 3.7e+06 M⁻¹ s⁻¹
Escherichia coli [2]
  Km: 4 µM
  kcat: 15 s⁻¹
